Columns and labels:
[1] = system: influenza A virus (A/PR/8/34(H1N1)); type: cell-based; settings: SI = CC50/IC50
SARS-CoV-2 = type: cell-based; settings: SI = CC50/IC50

Structure (SMILES) | SI [1] | SI (SARS-CoV-2)
CC1(c2ccccc2)CC(C)(C)N(C(=O)CSc2nc(O)cc(CSc3ccc(Cl)cc3)n2)c2ccccc21 (centres unmarked) [Compound 1] | 0.9 | 
CCCCc1nn2c(=O)cc(CSc3nc4ccc(NC(C)=O)cc4s3)nc2s1 [Compound 4] | >3.0 | 
CC(=O)c1ccc(N2CCN(C(=O)c3cc4c(=O)n(C)c5ccccc5c4s3)CC2)cc1 [Compound 6] | >41.2 | 
O=C(Cc1cccs1)Nc1ccc(N2CCN(c3ccccc3Cl)CC2)cc1C(=O)O [Compound 7] | >11.6 | 
CN1C(=O)c2ccccc2Sc2cc(-c3noc(CNC(=O)Cc4ccc(Cl)cc4)n3)ccc21 [Compound 8] | >14.9 | 
Cc1ccc(-c2onc3ccc(-c4cc(C(=O)O)c5cc(C)ccc5n4)cc23)cc1 [Compound 10] | >114.3 | 
Cc1cc2nc(C)c(C(=O)O)n2cc1-c1ccc(-c2ccccc2)cc1 [Compound 11, 6-([1,1′-Biphenyl]-4-yl)-2,7-dimethylimidazo[1,2-a]pyridine-3-carboxylic acid] | >235.3 | >55.6
Cc1nc2ccc(-c3ccc(-c4ccccc4)cc3)cn2c1C(=O)O [Compound 12, 6-([1,1′-Biphenyl]-4-yl)-2-methylimidazo[1,2-a]pyridine-3-carboxylic acid] | >2.0 | 
Cc1nc2ncc(-c3ccc(-c4ccccc4)cc3)cn2c1C(=O)O [Compound 13, 6-([1,1′-Biphenyl]-4-yl)-2-methylimidazo [1,2-a]pyrimidine-3-carboxylic acid] | >185.2 | >1.9

From article PMC12472551, “Comprehensive Identification and Mechanistic Evaluation of Novel DHODH Inhibitors as Potent Broad-Spectrum Antiviral Agents” (Pharmaceuticals, 2025)
